{"source": "paper PMC8371691", "about": "“‘Candidatus Liberibacter asiaticus’ Multimeric LotP Mediates Citrus sinensis Defense Response Activation” (2021)", "assay_in_all_cases": "SEC", "key": {"[1]": {"target": "His.EK.LotP ('Candidatus Liberibacter asiaticus')"}, "[2]": {"target": "His.EK.LotP.FLAG ('Candidatus Liberibacter asiaticus')"}, "[3]": {"target": "His.EK.LotP^R104A ('Candidatus Liberibacter asiaticus')"}}, "data": [{"substance": "His.EK.LotP (natural protein)", "values": [{"measurement": "stoichiometry N", "setting": "[1]", "result": 2}]}, {"substance": "His.EK.LotP.FLAG (natural protein)", "values": [{"measurement": "stoichiometry N", "setting": "[2]", "result": 2}]}, {"substance": "His.EK.LotP^R104A (natural protein)", "values": [{"measurement": "stoichiometry N", "setting": "[3]", "result": 6}]}]}
